Experimental data: PubChem BioAssay AID624099 (ICCB-Longwood, 2012)
Assay: 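Human genes that papillomavirus E2 requires to repress the HPV18 LCR promoter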 (primary screen). System: human C33A cervical carcinoma cells (HPV-negative) stably expressing BPV1 E2 and an HPV18 LCR luciferase reporter. Reagent: siRNA pool against human genes, 40 nM. Timing: 72 h. Measurement: 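Per-well luciferase luminescence, z-scored on each plate against the plate mean and SD with control wells left out, then averaged across three replicate plates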. Reading the numbers: mean z-score and z-score: higher = stronger reporter signal, weaker E2 silencing. Call rule: 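Hit if mean z-score reaches 2 and two or more of three replicate z-scores also reach 2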.
Here is one part, drawn at random, of about 21,000 reagents tested. In the full data, 497 (2.4%) were called active. 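Higher z means weaker E2 silencing; only reporter increases were scored, and knock-downs that hurt cell survival may mask genuine repressor factors.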 Unmarked entries are inactive. The numbers tell different reagents against one gene apart.

gene | reagent | mean z-score | z-score, replicate A | z-score, replicate B | z-score, replicate C
LOC400164 (retired record) | 1 | 0.1 | 0.2 | 0.1 | 0.01
INS | 1 | 0.69 | 0.71 | 0.74 | 0.62
HSF4 | 1 | -1 | -1.19 | -1.01 | -0.81
FXYD3 | 1 | 1.19 | 1.31 | 1.22 | 1.05
LOC390577 (retired record) | 1 | 0.25 | 0.36 | 0.01 | 0.38
FGD2 | 1 | -0.45 | -0.58 | -0.37 | -0.41
CASKIN1 | 1 | -0.98 | -0.98 | -0.91 | -1.05
CTSB | 1 | 0.76 | 0.61 | 1.08 | 0.59
ARID5B | 1 | -0.11 | -0.06 | -0.19 | -0.09
LOC389269 (retired record) | 1 | 0.74 | 0.91 | 0.35 | 0.96
GATA4 | 1 | -1.26 | -0.93 | -1.17 | -1.69
OXNAD1 | 1 | -0.57 | -0.43 | -0.7 | -0.58
SLC26A5 | 1 | -0.27 | -0.06 | -0.32 | -0.44
SLC35E2A | 1 | -2.56 | -2.54 | -2.45 | -2.7
FEZF1 | 1 | -0.46 | -0.62 | -0.21 | -0.56
FEZF1 | 2 | -0.59 | -0.67 | 0.03 | -1.14
TICAM2 | 1 | -0.51 | – | -0.41 | -0.61
MICU2 | 1 | 0.14 | 0.32 | 0.2 | -0.08
C17orf100 | 1 | 0.44 | 0.34 | 0.58 | 0.4
MISP | 1 | -0.15 | -0.5 | 0.14 | -0.08
SAMD9 | 1 | -1.1 | -1.34 | -1.18 | -0.79
LOC401954 (retired record) | 1 | -0.79 | -0.85 | -0.7 | -0.81
UNC5A | 1 | -0.4 | -0.38 | -0.61 | -0.21
HSD17B12 | 1 | 0.05 | -0.06 | 0.71 | -0.49
IGFLR1 | 1 | 0.03 | -0.39 | 0.45 | 0.03
PER2 | 1 | 1.08 | 0.78 | 1.27 | 1.19
PIP4K2C | 1 | 0.22 | 0.25 | 0.15 | 0.25
LOC388002 (retired record) | 1 | -0.26 | 0 | -0.41 | -0.38
REEP4 | 1 | 0.81 | 0.4 | 1.15 | 0.87
LOC402695 (retired record) | 1 | -0.54 | -0.32 | -0.56 | -0.74
ENO1 | 1 | 1.09 | 1.33 | 0.94 | 0.99
LOC93463 | 1 | -0.69 | -0.35 | -1.05 | -0.67
KLHDC10 | 1 | 0.28 | 0.52 | 0.05 | 0.28
FUT1 | 1 | -0.39 | -0.56 | -0.54 | -0.07
VN1R37P | 1 | -0.04 | -0.34 | 0.21 | 0.02
EPX | 1 | -0.21 | -0.08 | -0.23 | -0.31
GPR137C | 1 | -1.05 | -0.93 | -1.33 | -0.88
TMPRSS5 | 1 | 0.87 | 1.29 | 0.68 | 0.65
CXCR1 | 1 | 0.62 | 0.59 | 0.72 | 0.55
OR4F5 | 1 | 0.87 | 0.36 | 0.73 | 1.52
MRPL45 | 1 | -0.75 | -0.58 | -0.82 | -0.85
KRT78 | 1 | -0.06 | -0.16 | -0.03 | 0.02
CHAF1A | 1 | 4.49 (active) | 4.55 | 4.64 | 4.27
KIAA0087 | 1 | 2.72 (active) | 2.74 | 2.66 | 2.76
HMGN5 | 1 | 0.88 | 0.79 | 1.25 | 0.6
CDCA2 | 1 | -0.18 | -0.5 | 0.15 | -0.18
SLC6A12 | 1 | 0.46 | 0.33 | 0.5 | 0.54
LOC388628 (retired record) | 1 | -0.55 | -0.45 | -0.78 | -0.43
ADM2 | 1 | 0.66 | 1.02 | 0.56 | 0.41
CTTNBP2NL | 1 | -1.47 | -1.39 | -1.59 | -1.43
OR5P2 | 1 | -0.83 | -0.96 | -0.72 | -0.8
FLACC1 | 1 | 0.47 | 0.06 | 0.46 | 0.89
DYNLT5 | 1 | -0.66 | -0.56 | -0.53 | -0.89
PLXNB1 | 1 | -0.74 | -0.86 | -0.83 | -0.52
ASB13 | 1 | -0.88 | -0.61 | -1.03 | -1
SCRIB | 1 | 0.04 | 0.01 | 0.28 | -0.18
GPR88 | 1 | 0.42 | 0.34 | 0.47 | 0.45

Reformatted: 8 of the entries above.
gene	reagent	mean z-score	z-score, replicate A	z-score, replicate B	z-score, replicate C
CDCA2	1	-0.18	-0.5	0.15	-0.18
SLC6A12	1	0.46	0.33	0.5	0.54
LOC388628 (retired record)	1	-0.55	-0.45	-0.78	-0.43
ADM2	1	0.66	1.02	0.56	0.41
CTTNBP2NL	1	-1.47	-1.39	-1.59	-1.43
OR5P2	1	-0.83	-0.96	-0.72	-0.8
FLACC1	1	0.47	0.06	0.46	0.89
DYNLT5	1	-0.66	-0.56	-0.53	-0.89
